The chains behind the UniProt entries cited, without tags or fusion partners. Where a name states a change or a piece, a line headed by the entry shows the natural chain unless it says otherwise.
UniProt Q9ZQ97: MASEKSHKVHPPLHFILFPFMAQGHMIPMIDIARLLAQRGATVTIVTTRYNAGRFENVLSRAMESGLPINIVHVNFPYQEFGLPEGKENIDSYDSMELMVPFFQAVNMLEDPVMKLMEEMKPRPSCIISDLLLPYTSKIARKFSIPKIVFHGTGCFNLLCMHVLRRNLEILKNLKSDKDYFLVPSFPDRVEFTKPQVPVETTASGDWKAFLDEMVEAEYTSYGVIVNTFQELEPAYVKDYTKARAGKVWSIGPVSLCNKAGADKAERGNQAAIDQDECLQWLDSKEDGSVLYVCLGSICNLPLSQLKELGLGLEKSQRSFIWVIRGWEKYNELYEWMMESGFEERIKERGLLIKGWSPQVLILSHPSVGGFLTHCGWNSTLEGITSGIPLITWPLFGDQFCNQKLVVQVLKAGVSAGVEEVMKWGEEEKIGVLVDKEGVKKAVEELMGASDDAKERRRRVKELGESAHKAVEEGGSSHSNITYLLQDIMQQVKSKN

In patent US20060183202A1 (priority 2003, published 2006):

Target: UGT73C4 (Arabidopsis thaliana, UniProt Q9ZQ97)
Settings: yeast YZGA515, YPD plates with increasing toxin concentrations

T-2 toxin was tested, and the “resistance to the toxin conferred by UGT73C4 expression (detoxification)” value was “failed to confer resistance”.
